Anti-infective test results gathered from many reports (values: NIAID ChemDB through PubChem).

All rows: whole-cell or culture tests; species: HIV-1; method: p24; measure: EC50

ECn: concentration that inhibits the pathogen or its effect by n%. Blank or dashed fields: not listed here. Conditions beyond the fields shown may differ between rows.

SMILES,cell line,changes,strain or isolate,value
Nc1nc(=O)n([C@@H]2CO[C@H](CO)S2)cc1F,Jurkat cells,,IIIB,3.5 µM
CC(C)Nc1cccnc1N1CCN(C(=O)c2cc3cc(NS(C)(=O)=O)ccc3[nH]2)CC1,H9,,MN,0.18 µg/mL
CC(C)=CCN1Cc2cccc3[nH]c(=S)n(c23)C[C@@H]1C,PBMC,RT-E89G,,0.18 µM
Nc1ccn([C@@H]2CO[C@H](CO)S2)c(=O)n1,C8166,RT-M41L L74V V106A T215Y,HXB2,8 µM
Cc1ccnc2c1NC(=O)c1cccnc1N2C1CC1,PBMC,RT-E89G,,0.44 µM
Cc1csc(NC(=S)N[C@H](C)c2cccc3ccccc23)n1,PBMC,RT-Y181C K103N,NNRTI-resistant (RT Y181C K103N) A17V,0.114 µM
Nc1ncnc2c1ncn2[C@@H]1O[C@H](CO)C[C@@H]1F,MT-2,RT-K65R,K65R(RT-K65R),12 µM
COc1ccc(CN[C@@H](C(=O)N[C@H]2c3ccccc3C[C@H]2O)[C@H](O)[C@H](Cc2ccccc2)NC(=O)[C@@H](NC(=O)OCc2ccccc2)C(C)(C)C)cc1,Primary monocytes + Monocyte,,SF162,0.07 µM
c1cc(CN2CCCNCCNCCCNCC2)ccc1CN1CCCNCCNCCCNCC1,PBMC,,SW29 CLADE C R5,>0.5 µM
C[C@H](CNC(=S)Nc1ccccn1)C1CCCCC1,PBMC,,IIIB,>1 µM
CN[C@@H]1[C@H](O[C@@H]2OC[C@@H](O)[C@H](O)[C@H]2O)[C@@H](O)[C@H](O[C@H]2c3cc(C)c(C(=O)N[C@H](C)C(=O)O)c(O)c3-c3c(cc4c(c3O)C(=O)c3cc(OC)cc(O)c3C4=O)[C@@H]2O)O[C@@H]1C,PBMC,,BZ163 R5 CLADE F,11 µg/mL
Cc1ccc(NC(=O)Nc2ccc(-c3ccc(NC(=O)Nc4ccc(-c5ccc(NC(=O)Nc6ccc(-c7ccc(NC(=O)Nc8ccc(-c9ccc(NC(=O)Nc%10ccc(C)cc%10)cc9S(=O)(=O)O)c(S(=O)(=O)O)c8)cc7S(=O)(=O)O)c(S(=O)(=O)O)c6)cc5S(=O)(=O)O)c(S(=O)(=O)O)c4)cc3S(=O)(=O)O)c(S(=O)(=O)O)c2)cc1,MT-4,,RF,>11 µM
O=c1[nH]cnc2c1ncn2[C@H]1CC[C@@H](CO)O1,MT-2,RT-P119S V179D L214F,RT P119S V179D L214F,1.6 µM
Cc1csc(NC(=S)NC[C@H](C)c2ccccc2)n1,PBMC,RT-Y181C K103N,NNRTI-resistant (RT Y181C K103N) A17V,1.1 µM
O=C1N(Cc2ccc(CO)cc2)[C@H](Cc2ccccc2)[C@H](O)[C@@H](O)[C@@H](Cc2ccccc2)N1Cc1ccc(CO)cc1,PBMC,,H clinical isolate,0.11 µM
Cc1ccc(NC(=S)N[C@H](C)c2cccc3ccccc23)nc1,PBMC,,IIIB,0.0023 µM
CC(C)(C)NC(=O)[C@@H]1C[C@@H]2CCCC[C@@H]2CN1C[C@@H](O)[C@H](Cc1ccccc1)NC(=O)[C@H](CC(N)=O)NC(=O)c1ccc2ccccc2n1,C8166,,RF,0.0007 µM
C/C(=C(/CCO)SS/C(CCO)=C(\C)N(C=O)Cc1cnc(C)nc1N)N(C=O)Cc1cnc(C)nc1N,CEM/HIV-1(LAV-1) + CEM,,LAV-1,~125 µM
O=c1[nH]cnc2c1ncn2[C@H]1CC[C@@H](CO)O1,PBMC,,HXB2 WT,0.8 µM
O=c1c2ccccc2n2nnc3ccc(NCCCN4CCN(CCCNc5ccc6nnn7c8ccccc8c(=O)c5c67)CC4)c1c32,PBL,,ddI-resistant,0.01 µM
O=C1N(Cc2ccc(CO)cc2)[C@H](Cc2ccccc2)[C@H](O)[C@@H](O)[C@@H](Cc2ccccc2)N1Cc1ccc(CO)cc1,MT-4,PR-V82T,NL4-3,<0.1 µM
CC(C)(C)NC(=O)[C@@H]1CN(Cc2cccnc2)CCN1C[C@@H](O)C[C@@H](Cc1ccccc1)C(=O)N[C@H]1c2ccccc2C[C@H]1O,PBMC,PR-L10I K20R M36I/V P63L/S L90M,BR59 (PR L10I K20R M36I/V P63L/S L90M),0.003 µM
Cc1cn([C@H]2C[C@H](N=[N+]=[N-])[C@@H](CO)O2)c(=O)[nH]c1=O,MT-2,RT-L74V,L74V(RT-L74V),0.015 µM
CCc1cc(NCc2nc3c(Cl)ccc(Cl)c3o2)c(=O)[nH]c1C,MT-4,RT-K10D K103N,NL4-3,>3 µM
Cc1cn([C@H]2C[C@H](N=[N+]=[N-])[C@@H](CO)O2)c(=O)[nH]c1=O,PBMC,,H112-2,0.03 µM
Nc1ccn([C@H]2CO[C@@H](CO)S2)c(=O)n1,U-937,,IIIB,0.4 µM
CC(C)[C@H](NC(=O)c1ccc2ccccc2n1)C(=O)N[C@@H](Cc1ccccc1)[C@H](O)CN1CC[C@@H](OCc2ccncc2)C[C@H]1C(=O)NC(C)(C)C,PBMC,,VR1372,0.004 µM
C=C(C)OC(=O)N1c2cc(Cl)ccc2NC(=S)C1(C)C,H9,RT-G190E,A1(RT-G190E),>10 µg/mL
S=C(NCCc1cccs1)Nc1ccc(Br)cn1,PBMC,RT-D67N K70R T215E K219Q,G691-2 Clinical isolate NRTI-resistant,0.00004 µM
Cc1cn([C@H]2C[C@H](N=[N+]=[N-])[C@@H](CO)O2)c(=O)[nH]c1=O,PBMC,RT-M41L D67N K70R T215Y K219Q,G190-6 NRTI resistant,>3.2 µM
CC(C)Nc1cccnc1N1CCN(C(=O)c2cc3cc(NS(C)(=O)=O)ccc3[nH]2)CC1,PBMC,,JR-CSF,0.0053 µM
Cc1cccc(NC(=S)NC[C@H](C)c2ccccc2)n1,PBMC,,IIIB,0.04 µM
Nc1ccn([C@H]2CC[C@@H](CO)O2)c(=O)n1,PBMC,,NL4-3 WT,0.02 µM
Cc1cn([C@H]2C[C@H](N=[N+]=[N-])[C@@H](CO)O2)c(=O)[nH]c1=O,,,CC1 Clinical isolates,0.13 µM
CC(C)(C)NC(=O)[C@@H]1C[C@@H]2CCCC[C@@H]2CN1C[C@@H](O)[C@H](Cc1ccccc1)NC(=O)[C@H](CC(N)=O)NC(=O)c1ccc2ccccc2n1,MT-4,PR-L63P,NL4-3,<0.05 µM
COC(=O)[C@H](C)NP(=O)(OC[C@@H]1C=C[C@H](n2cc(C)c(=O)[nH]c2=O)O1)Oc1ccc(Br)cc1,PBMC,RT-M41L L210W T215Y,Q252-2 NRTI resistant,0.0019 µM
O=c1[nH]cnc2c1ncn2[C@@H]1O[C@H](CO)C[C@@H]1F,MT-2,,HXB2D,11 µM
Nc1ccn([C@H]2CC[C@@H](CO)O2)c(=O)n1,PBMC,RT-L74V T215Y K219Q,,0.32 µM
Cc1cn([C@H]2C[C@H](N=[N+]=[N-])[C@@H](CO)O2)c(=O)[nH]c1=O,PBMC,,7898 CLADE B CLADE B,0.007 µM
Cc1cn([C@H]2C[C@H](N=[N+]=[N-])[C@@H](CO)O2)c(=O)[nH]c1=O,PBMC,RT-T215Y,Recombinant,~0.02 µM
Nc1ccn([C@H]2CC[C@@H](CO)O2)c(=O)n1,PBL,,MN,0.04 µM

For reference, 4 entries again:

SMILES | cell line | changes | strain or isolate | value
CC(C)(C)NC(=O)[C@@H]1C[C@@H]2CCCC[C@@H]2CN1C[C@@H](O)[C@H](Cc1ccccc1)NC(=O)[C@H](CC(N)=O)NC(=O)c1ccc2ccccc2n1 | MT-4 | PR-L63P | NL4-3 | <0.05 µM
Nc1ncnc2c1ncn2[C@@H]1O[C@H](CO)C[C@@H]1F | MT-2 | RT-K65R | K65R(RT-K65R) | 12 µM
O=C1N(Cc2ccc(CO)cc2)[C@H](Cc2ccccc2)[C@H](O)[C@@H](O)[C@@H](Cc2ccccc2)N1Cc1ccc(CO)cc1 | MT-4 | PR-V82T | NL4-3 | <0.1 µM
Cc1cn([C@H]2C[C@H](N=[N+]=[N-])[C@@H](CO)O2)c(=O)[nH]c1=O |  |  | CC1 Clinical isolates | 0.13 µM